{"source": "PubChem BioAssay AID1224833 (University of Georgia, 2016)", "screen": "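Human genes whose knock-down alters rotavirus replication in monkey cells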 (primary screen)", "cell system": "monkey MA104 kidney cells", "reagent": "siRNA pool against human genes, 50 nM", "duration": "48 h knock-down before infection; read 24 h after infection", "treatment": "infection with rotavirus strain RV3 two days after transfection; infectious dose for this stage not given", "read-out": "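z-score of rotavirus antigen signal per well, from a fluorescent immunoassay, relative to non-targeting control wells on the same plate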", "reading the numbers": "z-score vs non-targeting control: higher = more rotavirus replication than with non-targeting control", "rule for the call": "In these data the active calls have z-score vs non-targeting control at about -1 or lower, or at about 1 or higher", "calls": "active = z-score beyond 1 either way; inactive = z-score within 1 of zero", "note": "The deposit covers about 12,000 reagents; below is a part drawn at random. Of all reagents, about 5,600 (46%) got an active call. 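Active calls cover z-scores past 1 in both directions, so they include lowered as well as raised rotavirus replication.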"}
{"gene": "PEAR1 (platelet endothelial aggregation receptor 1)", "z-score vs non-targeting control": 1.31, "Outcome": "active"}
{"gene": "NCBP3 (nuclear cap binding subunit 3)", "z-score vs non-targeting control": -0.236, "Outcome": "inactive"}
{"gene": "CDR1 (cerebellar degeneration related 1)", "z-score vs non-targeting control": -1.16, "Outcome": "active"}
{"gene": "MRTFB (myocardin related transcription factor B)", "z-score vs non-targeting control": -0.668, "Outcome": "inactive"}
{"gene": "PCDH12 (protocadherin 12)", "z-score vs non-targeting control": -1.14, "Outcome": "active"}
{"gene": "SMUG1", "z-score vs non-targeting control": 0.704, "Outcome": "inactive"}
{"gene": "ZYX (zyxin)", "z-score vs non-targeting control": 1.29, "Outcome": "active"}
{"gene": "VPS9D1 (VPS9 domain containing 1)", "z-score vs non-targeting control": 0.614, "Outcome": "inactive"}
{"gene": "FLT3LG (fms related receptor tyrosine kinase 3 ligand)", "z-score vs non-targeting control": -0.411, "Outcome": "inactive"}
{"gene": "ALCAM (activated leukocyte cell adhesion molecule)", "z-score vs non-targeting control": -1.64, "Outcome": "active"}
{"gene": "CHORDC1 (cysteine and histidine rich domain containing 1)", "z-score vs non-targeting control": -0.258, "Outcome": "inactive"}
{"gene": "MOB4 (MOB family member 4, phocein)", "z-score vs non-targeting control": 0.37, "Outcome": "inactive"}
{"gene": "CCNA1 (cyclin A1)", "z-score vs non-targeting control": 1.42, "Outcome": "active"}
{"gene": "TNPO2 (transportin 2)", "z-score vs non-targeting control": -1.27, "Outcome": "active"}
{"gene": "ZNF721 (zinc finger protein 721)", "z-score vs non-targeting control": -1.07, "Outcome": "active"}
{"gene": "TOMM7 (translocase of outer mitochondrial membrane 7)", "z-score vs non-targeting control": 0.848, "Outcome": "inactive"}
{"gene": "IL21 (interleukin 21)", "z-score vs non-targeting control": -0.212, "Outcome": "inactive"}
{"gene": "NECAP1 (NECAP endocytosis associated 1)", "z-score vs non-targeting control": 0.275, "Outcome": "inactive"}
{"gene": "MTFP1 (mitochondrial fission process 1)", "z-score vs non-targeting control": -2.93, "Outcome": "active"}
{"gene": "MAU2", "z-score vs non-targeting control": 1.07, "Outcome": "active"}
{"gene": "MYBPC1 (myosin binding protein C1)", "z-score vs non-targeting control": 1.85, "Outcome": "active"}
{"gene": "DUOX2 (dual oxidase 2)", "z-score vs non-targeting control": -1.9, "Outcome": "active"}
{"gene": "ZDHHC11 (zDHHC palmitoyltransferase 11)", "z-score vs non-targeting control": -0.387, "Outcome": "inactive"}
{"gene": "NUP210L (nucleoporin 210 like)", "z-score vs non-targeting control": -1.57, "Outcome": "active"}
{"gene": "CHMP7 (charged multivesicular body protein 7)", "z-score vs non-targeting control": 0.509, "Outcome": "inactive"}
{"gene": "VEZF1 (vascular endothelial zinc finger 1)", "z-score vs non-targeting control": -0.621, "Outcome": "inactive"}
{"gene": "PLP2 (proteolipid protein 2)", "z-score vs non-targeting control": -1.94, "Outcome": "active"}
{"gene": "PLEKHB2 (pleckstrin homology domain containing B2)", "z-score vs non-targeting control": -1.4, "Outcome": "active"}
{"gene": "AOAH (acyloxyacyl hydrolase)", "z-score vs non-targeting control": -0.904, "Outcome": "inactive"}
{"gene": "TAS2R40 (taste 2 receptor member 40)", "z-score vs non-targeting control": -0.854, "Outcome": "inactive"}
{"gene": "THAP1 (THAP domain containing 1)", "z-score vs non-targeting control": -0.671, "Outcome": "inactive"}
{"gene": "ACTG1 (actin gamma 1)", "z-score vs non-targeting control": 1, "Outcome": "active"}
{"gene": "NFU1 (NFU1 iron-sulfur cluster scaffold)", "z-score vs non-targeting control": -0.873, "Outcome": "inactive"}
{"gene": "GLIS3 (GLIS family zinc finger 3)", "z-score vs non-targeting control": -1.93, "Outcome": "active"}
{"gene": "VOPP1 (VOPP1 WW domain binding protein)", "z-score vs non-targeting control": 1.43, "Outcome": "active"}
{"gene": "NARS2 (asparaginyl-tRNA synthetase 2, mitochondrial)", "z-score vs non-targeting control": -0.744, "Outcome": "inactive"}
{"gene": "IRX5 (iroquois homeobox 5)", "z-score vs non-targeting control": -0.757, "Outcome": "inactive"}
{"gene": "FRS2 (fibroblast growth factor receptor substrate 2)", "z-score vs non-targeting control": 0.167, "Outcome": "inactive"}
{"gene": "SHANK2 (SH3 and multiple ankyrin repeat domains 2)", "z-score vs non-targeting control": -2.1, "Outcome": "active"}
{"gene": "WDTC1 (WD and tetratricopeptide repeats 1)", "z-score vs non-targeting control": -0.701, "Outcome": "inactive"}
{"gene": "OR2F1 (olfactory receptor family 2 subfamily F member 1)", "z-score vs non-targeting control": -0.842, "Outcome": "inactive"}
{"gene": "DNMBP (dynamin binding protein)", "z-score vs non-targeting control": -0.668, "Outcome": "inactive"}
{"gene": "ERVFRD-1 (endogenous retrovirus group FRD member 1, envelope)", "z-score vs non-targeting control": -2.28, "Outcome": "active"}
{"gene": "SLC6A20", "z-score vs non-targeting control": -1.69, "Outcome": "active"}
{"gene": "LAPTM5 (lysosomal protein transmembrane 5)", "z-score vs non-targeting control": -1.54, "Outcome": "active"}
{"gene": "LRRC75B (leucine rich repeat containing 75B)", "z-score vs non-targeting control": -1.19, "Outcome": "active"}
{"gene": "ELAPOR1", "z-score vs non-targeting control": -1.56, "Outcome": "active"}

Part of the list above, set out differently:
gene	z-score vs non-targeting control	Outcome
MRTFB (myocardin related transcription factor B)	-0.668	inactive
PCDH12 (protocadherin 12)	-1.14	active
SMUG1	0.704	inactive
ZYX (zyxin)	1.29	active
